Compound potency records, mixed from different reports. Data source: NIAID ChemDB in PubChem.

All rows: whole-cell or culture tests

MIC50, MIC90 and the like: level of inhibition, or share of isolates inhibited. ECn: concentration that inhibits the pathogen or its effect by n%. Percent inhibition refers to the dose given; in toxicity tests it is the harm to the cells. Neighbouring rows are from separate reports. Blank or dashed fields: not listed here.

structure	strain or isolate	endpoint	method	tested at	cells	species	result
Nc1ncnc2c1ncn2[C@@H]1C=C(CO)[C@@H](O)[C@H]1O	LONG	EC50	cytopathic effect	-	HeLa	Respiratory syncytial virus	>20 µg/mL
Cc1c(N2CCC(N(C)C)C2)c(F)cn2c(=O)c(C(=O)O)cc(C3CC3)c12	ATCC 8043	MIC	-	-	-	Enterococcus faecium	0.2 µg/mL
Nc1ncnc2c1ncn2CCOCP(=O)(O)O	Ganciclovir-resistant	EC50	plaque count	-	C1271	Mouse cytomegalovirus	2.4 µM
NC[C@@H]1O[C@H](O[C@H]2[C@@H](O)[C@H](O[C@@H]3[C@@H](O)[C@H](N)C[C@H](N)[C@H]3O[C@H]3O[C@H](CO)[C@@H](O)[C@H](O)[C@H]3N)O[C@@H]2CO)[C@H](N)[C@@H](O)[C@@H]1O	-	EC50	cytopathic effect	-	MRC-5 fibroblasts	Encephalitozoon cuniculi	>1000 µg/mL
Nc1ncnc2c1ccn2[C@@H]1O[C@H](CO)[C@@H](O)[C@H]1O	LONG	EC50	cytopathic effect	-	HeLa	Respiratory syncytial virus	1 µg/mL
CN[C@@H]1CN(c2c(F)cn3c(=O)c(C(=O)O)cc(C4CC4)c3c2C)CC12CC2	ATCC 8043	MIC	-	-	-	Enterococcus faecium	0.2 µg/mL
OC[C@@H]1C[C@@H](O)[C@H](n2cnc3c(NC4CCCCC4)nccc32)O1	KV1772	EC50	cytopathic effect	-	Sheep chondrocytes G81092	Maedi-visna virus	1.6 µM
CCn1cc(C(=O)O)c(=O)c2cc(F)c(N3CCN(C)CC3)cc21	-	inhibition	cytopathic effect	5 µg/mL	MRC-5 fibroblasts	Encephalitozoon cuniculi	0%
OC[C@H]1O[C@@H](n2cnc3c(NC4CCCCCC4)nc(Cl)nc32)CC1O	IRB-LA	EC50	cytopathic effect	-	MDBK	Bovine herpesvirus 1	50 µM
COc1cc(Cc2cnc(N)nc2N)cc(OC)c1OC	ATCC 35840	MIC	-	-	-	Mycobacterium ulcerans	>16 µg/mL
Nc1nc(N)c2ncn(CCOCP(=O)(O)O)c2n1	Foscarnet-resistant	EC50	plaque count	-	C1271	Mouse cytomegalovirus	0.9 µM
N#CC[C@H](C1CCCC1)n1cc(-c2ncnc3[nH]ccc23)cn1	-	EC90	p24 / ELISA	-	PBMC	SHIV	1.3 µM
C[C@@]1(O)[C@H](O)[C@@H](CO)O[C@H]1c1coc2c(N)ncnc12	-	inhibition	MTT	50 µg/mL	Hep3B-T5B	Hepatitis C virus	7.84%
Cc1cn([C@H]2C[C@H](N=[N+]=[N-])[C@@H](CO)O2)c(=O)[nH]c1=O	-	EC50	p24 / ELISA	-	PBMC	SHIV	0.002 µM
Nc1nc(=O)n2ccn([C@@H]3O[C@H](CO)[C@@H](O)[C@H]3O)c2n1	New York isolates	EC50	cytopathic effect	-	VERO	West Nile virus	8 µg/mL
O=c1c(O)c(-c2ccc(O)c(O)c2)oc2cc(O)cc(O)c12	Clinical isolate 6	MIC50	broth dilution	-	-	Candida tropicalis	>128 µg/mL
Nc1nc(N)c2ncn(CCOCP(=O)(O)O)c2n1	-	EC50	antigen	-	Primary duck hepatocytes	Duck hepatitis B virus	0.8 µg/mL
COc1cc(C[C@H](C)[C@H](C)Cc2ccc(O)c(O)c2)ccc1O	CCC 122-2000	MIC50	broth dilution	-	-	Candida colliculosa	31.25 µg/mL
COc1ccc(OC)c(Cc2cnc3nc(N)nc(N)c3c2C)c1	-	EC50	cytopathic effect	-	MRC-5 fibroblasts	Encephalitozoon cuniculi	>10 µg/mL
Nc1nc2c(ncn2COCCO)c(=O)[nH]1	HPMPC-resistant	EC50	plaque count	-	C1271	Mouse cytomegalovirus	2.7 µM
CCCN(CCC)c1c([N+](=O)[O-])cc(S(N)(=O)=O)cc1[N+](=O)[O-]	Ethalfluralin-resistant	EC50	-	-	-	Toxoplasma gondii	3 µM
Nc1ccn([C@@H]2O[C@H](CO)[C@@H](O)[C@@H]2O)c(=O)n1	-	EC50	antigen	-	Primary duck hepatocytes	Duck hepatitis B virus	>100 µg/mL
CC[C@H]1OC(=O)[C@H](C)[C@@H](O[C@H]2C[C@@](C)(OC)[C@@H](O)[C@H](C)O2)[C@H](C)[C@@H](O[C@@H]2O[C@H](C)C[C@H](N(C)C)[C@H]2O)[C@](C)(O)C[C@@H](C)/C(=N\OCOCCOC)[C@H](C)[C@@H](O)[C@]1(C)O	-	inhibition	cytopathic effect	10 µg/mL	MRC-5 fibroblasts	Encephalitozoon cuniculi	0%
OC[C@H]1O[C@@H](n2cnc3c(NC4CCCC4)cc(Cl)nc32)[C@H](O)[C@@H]1O	KV1772	EC50	cytopathic effect	-	Sheep chondrocytes G81092	Maedi-visna virus	0.5 µM
O=c1cnn([C@@H]2O[C@H](CO)[C@@H](O)[C@H]2O)c(=O)[nH]1	E101	EC50	virus yield	-	VERO	West Nile virus	<3.2 µg/mL
O=C1C=CN([C@@H]2O[C@H](CO)[C@@H](O)[C@H]2O)C(=O)C1	LONG	EC50	cytopathic effect	-	HeLa	Respiratory syncytial virus	>500 µg/mL
NC(=O)c1[nH]nc([C@@H]2O[C@H](CO)[C@@H](O)[C@H]2O)c1O	-	EC50	antigen	-	Primary duck hepatocytes	Duck hepatitis B virus	5.3 µg/mL
NC(=O)c1c[se]c([C@@H]2O[C@H](CO)[C@@H](O)[C@H]2O)n1	TYPE 3/ABNEY	EC50	cytopathic effect	-	HeLa	Reovirus	8 µg/mL
OC[C@@H]1C[C@@H](O)[C@H](n2cnc3c(NC4CCCCCC4)cc(Cl)nc32)O1	IRB-LA	EC50	cytopathic effect	-	MDBK	Bovine herpesvirus 1	>50 µM
C#CC[C@@H](C(=O)N[C@H](/C=C/C(=O)OCC)C[C@@H]1CCNC1=O)n1cccc(NC(=O)c2cc(C)on2)c1=O	Serotype 19	inhibition	cytopathic effect / XTT	0.187 µM	H1-HELA	Rhinovirus	90%
OC[C@@H]1CC[C@H](n2cnc3c(NC4CC4)nc(Cl)nc32)O1	KV1772	EC50	cytopathic effect	-	Sheep chondrocytes G81092	Maedi-visna virus	0.41 µM
Nc1ncnc2c1ncn2[C@@H]1C=C[C@@H](O)[C@H]1O	-	EC50	antigen	-	Primary duck hepatocytes	Duck hepatitis B virus	>100 µg/mL
COc1cc(Cc2cnc(N)nc2N)cc(OC)c1Br	Isolate 8756	MIC	-	-	-	Mycobacterium ulcerans	4 µg/mL
C[C@H]1COc2c(N3CCN(C)CC3)c(F)cc3c(=O)c(C(=O)O)cn1c23	Clinical isolate SP30	MIC	-	-	-	Streptococcus pneumoniae	1 µg/mL
Cc1c(N2CC[C@H](C3(N)CC3)C2)c(F)cn2c(=O)c(C(=O)O)cc(C3CC3)c12	ATCC 8043	MIC	-	-	-	Enterococcus faecium	0.2 µg/mL
Nc1nc(N)c2ncn(CCOCP(=O)(O)O)c2n1	BVDU-resistant	EC50	plaque count	-	HEL	Varicella zoster virus	1.32 µg/mL
Nc1cc2[nH]cnc2c(=O)[nH]1	S-2	EC50	cytopathic effect	-	HeLa	Respiratory syncytial virus	1.6 µg/mL
Nc1ncnc2c1ncn2[C@@H]1O[C@H](CO)[C@@H](O)[C@@H]1O	-	EC50	antigen	-	Primary duck hepatocytes	Duck hepatitis B virus	15 µg/mL
O=C1N(Cc2ccc(CO)cc2)[C@H](Cc2ccccc2)[C@H](O)[C@@H](O)[C@@H](Cc2ccccc2)N1Cc1ccc(CO)cc1	A018A	inhibition	p24	0.24 µM	PBMC	HIV-1	90%
Cc1cn([C@H]2C[C@H](N=[N+]=[N-])[C@@H](CO)O2)c(=O)[nH]c1=O	LAV-2	inhibition	virus yield	1 µM	CEM	HIV-2	90%
Nc1nc2c(ncn2CCC(CO)CO)c(=O)[nH]1	PCV-resistant/A	EC50	plaque count	-	HEL	Varicella zoster virus	3.16 µg/mL
O=c1ccn([C@@H]2CC[C@H](CO)O2)c(=O)[nH]1	-	EC50	antigen	-	Primary duck hepatocytes	Duck hepatitis B virus	50 µg/mL
Cc1c(N2CCC(N)CC2)c(F)cn2c(=O)c(C(=O)O)cc(C3CC3)c12	ATCC 8043	MIC	-	-	-	Enterococcus faecium	0.2 µg/mL
CC(N)C12CC3CC(CC(C3)C1)C2	Influenza A/Sydney/05/97 (H3N2)	EC50	neutral red / visual reading	-	MDCK	Influenza A virus	0.06 µM
O=c1[nH]c(=O)n([C@@H]2O[C@H](CO)[C@@H](O)[C@@H]2O)cc1/C=C/Br	PCV-resistant/A	EC50	plaque count	-	HEL	Varicella zoster virus	0.00012 µg/mL
Nc1cc(Cl)nc2c1ncn2[C@@H]1O[C@H](CO)C[C@H]1O	KV1772	EC50	cytopathic effect	-	Sheep chondrocytes G81092	Maedi-visna virus	0.15 µM
CO[C@H]1/C=C/O[C@@]2(C)Oc3c(C)c(O)c4c(O)c(c5c(c4c3C2=O)NC2(CCN(CC(C)C)CC2)N=5)=NC(=O)/C(C)=C\C=C\[C@H](C)[C@H](O)[C@@H](C)[C@@H](O)[C@@H](C)[C@H](OC(C)=O)[C@@H]1C	-	inhibition	cytopathic effect	20 µg/mL	MRC-5 fibroblasts	Encephalitozoon cuniculi	22%
Nc1nc2c(ncn2CC(CO)OCP(=O)(O)O)c(=O)[nH]1	HPMPC-resistant	EC50	plaque count	-	C1271	Mouse cytomegalovirus	3.1 µM
OC[C@H]1O[C@@H](n2cnc3c(NC4CC4)ncnc32)C[C@@H]1O	KV1772	EC50	cytopathic effect	-	Sheep chondrocytes G81092	Maedi-visna virus	1.5 µM
CC(=O)NC[C@H]1CN(c2ccc(N3CCOCC3)c(F)c2)C(=O)O1	Penicillin-resistant	MIC90	-	-	-	Streptococcus pneumoniae	1 µg/mL
C[C@@]1(O)[C@H](O)[C@@H](CO)O[C@H]1c1c[nH]c2c(N)ncnc12	-	inhibition	MTT	2 µg/mL	Hep3B-T5B	Hepatitis C virus	0.13%
CO[C@H]1O[C@@H](n2ccc(=O)[nH]c2=O)C[C@@H]1N=[N+]=[N-]	-	EC50	antigen	-	Primary duck hepatocytes	Duck hepatitis B virus	100 µg/mL
COC(=O)[C@H]1[C@@H]2C[C@@H](O[C@@H]3O[C@H](C)[C@@H](O)[C@H](N)[C@@H]3O)/C=C/C=C/C=C/C=C/C=C/C=C/C=C/[C@H](C)[C@@H](O)[C@H](C)[C@H](C)OC(=O)C[C@H](O)C[C@H](O)[C@@H](O)CC[C@H](O)C[C@H](O)C[C@](O)(C[C@@H]1O)O2	-	inhibition	virus yield	50 µg/mL	L929	Vesicular stomatitis virus	0%
CO[C@H]1[C@@H](OC(=O)/C=C/C=C/C=C/C=C/C(=O)O)CC[C@@]2(CO2)[C@@H]1[C@@]1(C)O[C@@H]1CC=C(C)C	-	inhibition	cytopathic effect	0.0001 µg/mL	MRC-5 fibroblasts	Encephalitozoon cuniculi	10%
O=c1[nH]c(=O)n([C@H]2C[C@H](O)[C@@H](CO)O2)cc1/C=C/Br	-	EC50	antigen	-	Primary duck hepatocytes	Duck hepatitis B virus	>50 µg/mL
O=C(O)CP(=O)(O)O	PFA-resistant/B	EC50	plaque count	-	HEL	Varicella zoster virus	32.4 µg/mL
O=C(O)P(=O)(O)O	Ganciclovir-resistant	EC50	plaque count	-	C1271	Mouse cytomegalovirus	650 µM
OC[C@H]1O[C@@H](n2cnc3c(NC4CC4)nc(Cl)nc32)C[C@@H]1O	KV1772	EC50	cytopathic effect	-	Sheep chondrocytes G81092	Maedi-visna virus	0.15 µM

A second listing of 8 rows from above:

structure	strain or isolate	endpoint	method	tested at	cells	species	result
O=c1cnn([C@@H]2O[C@H](CO)[C@@H](O)[C@H]2O)c(=O)[nH]1	E101	EC50	virus yield	-	VERO	West Nile virus	<3.2 µg/mL
Cc1cn([C@H]2C[C@H](N=[N+]=[N-])[C@@H](CO)O2)c(=O)[nH]c1=O	LAV-2	inhibition	virus yield	1 µM	CEM	HIV-2	90%
O=c1[nH]c(=O)n([C@H]2C[C@H](O)[C@@H](CO)O2)cc1/C=C/Br	-	EC50	antigen	-	Primary duck hepatocytes	Duck hepatitis B virus	>50 µg/mL
Nc1ncnc2c1ncn2[C@@H]1O[C@H](CO)[C@@H](O)[C@@H]1O	-	EC50	antigen	-	Primary duck hepatocytes	Duck hepatitis B virus	15 µg/mL
CO[C@H]1[C@@H](OC(=O)/C=C/C=C/C=C/C=C/C(=O)O)CC[C@@]2(CO2)[C@@H]1[C@@]1(C)O[C@@H]1CC=C(C)C	-	inhibition	cytopathic effect	0.0001 µg/mL	MRC-5 fibroblasts	Encephalitozoon cuniculi	10%
Nc1ncnc2c1ncn2[C@@H]1C=C(CO)[C@@H](O)[C@H]1O	LONG	EC50	cytopathic effect	-	HeLa	Respiratory syncytial virus	>20 µg/mL
Nc1ccn([C@@H]2O[C@H](CO)[C@@H](O)[C@@H]2O)c(=O)n1	-	EC50	antigen	-	Primary duck hepatocytes	Duck hepatitis B virus	>100 µg/mL
CC[C@H]1OC(=O)[C@H](C)[C@@H](O[C@H]2C[C@@](C)(OC)[C@@H](O)[C@H](C)O2)[C@H](C)[C@@H](O[C@@H]2O[C@H](C)C[C@H](N(C)C)[C@H]2O)[C@](C)(O)C[C@@H](C)/C(=N\OCOCCOC)[C@H](C)[C@@H](O)[C@]1(C)O	-	inhibition	cytopathic effect	10 µg/mL	MRC-5 fibroblasts	Encephalitozoon cuniculi	0%